ChEMBL document CHEMBL3243964, “Biomolecules bearing the S- or SeAsMe2 function: amino acid and steroid derivatives” (J Med Chem, 1979)

Species: Mus musculus
Assay: Toxicity in mouse allografted with mouse L1210 cells
Format: organism-based

Question: How did the Activity turn out when `C[As](C)Sc1ncnc2[nH]cnc12` was run?
Answer: 50 mg/kg

Question: With `C[As](C)SC(C)(C)C(N)C(=O)O.Cl` (stereo not drawn) as the molecule, how does the Activity read?
Answer: 100 mg/kg

Question: With `C[As](C)SC(C)(C)C(N)C(=O)O` (stereo not drawn) as the molecule, how does the Activity read?
Answer: 50 mg/kg
